Values of other authors, collected in publication PMC8427777 (ACS Omega, 2021).

Tested on: COVID-19
Details: anti-C5 antibody; cited from earlier work

B1: Eculizumab: anti-C5 antibody (antibody, chains of the INN, looked up)
heavy: QVQLVQSGAEVKKPGASVKVSCKASGYIFSNYWIQWVRQAPGQGLEWMGEILPGSGSTEYTENFKDRVTMTRDTSTSTVYMELSSLRSEDTAVYYCARYFFGSSPNWYFDVWGQGTLVTVSSASTKGPSVFPLAPCSRSTSESTAALGCLVKDYFPEPVTVSWNSGALTSGVHTFPAVLQSSGLYSLSSVVTVPSSNFGTQTYTCNVDHKPSNTKVDKTVERKCCVECPPCPAPPVAGPSVFLFPPKPKDTLMISRTPEVTCVVVDVSQEDPEVQFNWYVDGVEVHNAKTKPREEQFNSTYRVVSVLTVLHQDWLNGKEYKCKVSNKGLPSSIEKTISKAKGQPREPQVYTLPPSQEEMTKNQVSLTCLVKGFYPSDIAVEWESNGQPENNYKTTPPVLDSDGSFFLYSRLTVDKSRWQEGNVFSCSVMHEALHNHYTQKSLSLSLG
light: DIQMTQSPSSLSASVGDRVTITCGASENIYGALNWYQQKPGKAPKLLIYGATNLADGVPSRFSGSGSGTDFTLTISSLQPEDFATYYCQNVLNTPLTFGQGTKVEIKRTVAAPSVFIFPPSDEQLKSGTASVVCLLNNFYPREAKVQWKVDNALQSGNSQESVTEQDSKDSTYSLSSTLTLSKADYEKHKVYACEVTHQGLSSPVTKSFNRGEC
- outcome in COVID-19 treatment: favorable outcome
